Results reported in patent US6423707B1, “Nitroimidazole ester analogues and therapeutic applications” (California Pacific Medical Center, priority 2000, dated 2002).
Converted amounts (≈) assume the structure as drawn.

Test system: metronidazole resistant H. pylori isolate (ATCC strain 43579)
Assay: Helicobacter pylori microbicidal assay (Example 12)
Type: cell-based
Conditions: for MBC (Minimal Bactericidal Concentration): lowest concentration that killed 100% of the H. pylori working solution, ATCC strain 43579, metronidazole-resistant, 72 hours; for Bactericidal Activity Index: relative to positive control (=1), ATCC strain 43579

Compound | MBC (Minimal Bactericidal Concentration) | Bactericidal Activity Index
Cc1ncc([N+](=O)[O-])n1CCOC(=O)[C@H](C)ON=C1c2cc([N+](=O)[O-])cc([N+](=O)[O-])c2-c2c1cc([N+](=O)[O-])cc2[N+](=O)[O-] | 17 µg/mL (≈ 28.3 µM) | 5.2
Cc1ncc([N+](=O)[O-])n1CCOC(=O)c1cc([N+](=O)[O-])c(Cl)c([N+](=O)[O-])c1 | 63 µg/mL (≈ 158 µM) | 1.4
